Source: ChEMBL document CHEMBL3988442, “University of Dundee, Small-Polar-MMV Screening Library” (2021).

Each number is a percent effect as filed.
How 0% and 100% were set is not recorded. Most values in the screen are low, and negative values occur.
The entries come from a sample that favours strong results.
A dash means the value is not listed here; it may have been measured.

Mtb glucose medium: 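Growth of Mycobacterium tuberculosis over 3 days (7H9 medium with glucose and tyloxapol); the read-out is not stated. Tested at 500 µM. The record gives no direction; compounds that gave an IC50 in retests scored well above the rest, so higher reads as more growth inhibition. About 18,000 compounds were tested under these conditions; 7.9% (about 1,400) showed 50% or more at least once.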
Mtb cholesterol medium: 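Phenotypic screen: M. tuberculosis growth, cholesterol and DPPC medium, 4 days; the read-out is not stated. Concentration: 500 µM. Direction is inferred from retests: higher values go with more growth inhibition. Of about 18,000 compounds tested this way, about 900 (5%) reached 50% or more in at least one test.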

| # | Compound | Mtb glucose medium | Mtb cholesterol medium |
|---|---|---|---|
| 1 | `COCCNC(C)(CO)C1CCCCC1` (centres unmarked) | 1.696 | - |
| 2 | `CCC(O)CN1CCN(CC2CCOCC2)CC1` (centres unmarked) | - | 3.082 |
| 3 | `CCOC(=O)N1CCN(S(=O)(=O)c2cccs2)CC1` | - | -9.057 |
| 4 | `CS(=O)(=O)N1CCN(Cc2cccc(Br)c2)CC1` | 4.59 | - |
| 5 | `CNCc1ccoc1` | 9.923 | - |
| 6 | `Cc1occc1C(=O)N1CCN(c2nccs2)CC1` | 28.61 | 8.246 |
| 7 | `COc1ccc(N2CCNCC2)cc1F` | 41.03 | - |
| 8 | `CN1CC(NC(=O)NCCc2cccs2)CC1=O` (centres unmarked) | -6.486 | - |
| 9 | `c1cc(CC2CCNCC2)ccn1` | - | 2.109 |
| 10 | `Cc1cncc(CN)c1` | - | -7.047 |
| 11 | `CNCCOc1ccccc1OC` | 15.71 | - |
| 12 | `CC(Sc1nc2ccccc2n1C)C(N)=O` (centres unmarked) | 3.592 | - |
| 13 | `Cc1oc(C)c(C(=O)NCC(=O)N2CCCC2)c1C` | - | 73.81 |
| 14 | `Clc1ccc2oc(N3CCNCC3)nc2c1` | 30.6 | 11.87 |
| 15 | `CN(C)C(=O)c1ccc(OCC2CCCO2)cc1` (centres unmarked) | -0.2216 | - |
| 16 | `NCCCc1ccc2c(c1)OCCO2` | 31.09 | - |
| 17 | `CNC(=O)CN1CCCC1COc1ccccc1` (centres unmarked) | - | 19.45 |
| 18 | `NCCS(=O)(=O)NCC1CCC1` | 14.6 | -6.97 |
| 19 | `CCS(=O)(=O)c1ccc(C(C)N)cc1` (centres unmarked) | 9.874 | - |
| 20 | `CC(CNC(=O)NCc1cc[nH]n1)N1CCOCC1` (centres unmarked) | 11.63 | - |
| 21 | `N#CCCCn1nnc(-c2ccccc2)n1` | 60.44 | 71.66 |
| 22 | `COc1ccc(Cl)cc1NC(=O)CN(C)CC(N)=O` | 15.88 | - |
| 23 | `CNc1nc(NCC2(CO)CCC2)ncc1Br` | 4.593 | - |
| 24 | `CC(C)NC1CCOCC1` | 4.324 | - |
| 25 | `Cc1ccnc(NCC2CCN(CCS(C)(=O)=O)C2)c1` (centres unmarked) | 1.067 | -6.392 |
| 26 | `CC1CCCCN1CC(=O)NC1(C#N)CCCC1` (centres unmarked) | -0.8095 | - |
| 27 | `COCC(=O)N1CCCN(Cc2cnn(C)c2)CC1` | 0.9726 | - |
| 28 | `CC(C)(C)OC(=O)NCC(C)(N)C1CC1` (centres unmarked) | - | 16.25 |
| 29 | `CCC(O)(CN)c1ccc(Cl)cc1` (centres unmarked) | - | 6.801 |
| 30 | `COCCn1cnnc1CN(C)Cc1c[nH]c(C)n1` | -3.804 | - |
| 31 | `Cc1cc(C(=O)NCC(C)c2nc(C)cs2)nc(N)n1` (centres unmarked) | 44.67 | - |
| 32 | `N#Cc1cccc(NC(=O)CN2CCCCCC2=O)c1` | 8.566 | - |
| 33 | `Cc1ncsc1C(=O)NC(CCO)C(C)(C)C` (centres unmarked) | -0.333 | 0.03788 |
| 34 | `CCCNC(=O)C(C)N` (centres unmarked) | 6.514 | - |
| 35 | `CC(C)CCNC(=O)CCn1cc(Br)ccc1=O` | 50.54 | - |
| 36 | `CC(C)c1nnc(CN[C@H](CO)C(C)C)o1` | 12.2 | 1.397 |
| 37 | `CN1CCN(C(=O)C2CCCO2)c2ccccc2C1` (centres unmarked) | - | -2.177 |
| 38 | `CNC(=O)CN(c1cccc2ccccc12)S(C)(=O)=O` | 7.111 | - |
| 39 | `CCNS(=O)(=O)C1CCN(Cc2ccn(C)c2)C1` (centres unmarked) | - | 0.3675 |
| 40 | `Nc1cccnc1NCc1cccnc1` | -115.5 | - |

3 of the entries, repeated:

| Compound | Mtb glucose medium | Mtb cholesterol medium |
|---|---|---|
| `Cc1ncsc1C(=O)NC(CCO)C(C)(C)C` (centres unmarked) | -0.333 | 0.03788 |
| `CNC(=O)CN(c1cccc2ccccc12)S(C)(=O)=O` | 7.111 | - |
| `COCCNC(C)(CO)C1CCCCC1` (centres unmarked) | 1.696 | - |